In paper PMC5920107, “Self-homodimerization of an actinoporin by disulfide bridging reveals implications for their structure and pore formation” (2018):

Target: P81662
Conditions: AUC

B1: sticholysin I Trp111 to Cys mutant (StI W111C) (protein)
chain: SELAGTIIDGASLTFQVLDKVLGELGKVSRKIAVGIDNESGGTWTALNAYFRSGTTDVILPEVVPNTKALLYSGRKSSGPVATGAVAAFAYYMSNGNTLGVMFSVPFDYNCYSNWWDVKIYPGKRRADQGMYEDMYYGNPYRGDNGWYQKNLGYGLRMKGIMTSAGEAKMQIKISR
- peaks integration (%), monomer peak: 8%
